{
  "sequences": {"note": "Chains of the proteins cited; added tags and fusions are not shown. Residues count along the entry.", "UniProt P02745, 23-245": "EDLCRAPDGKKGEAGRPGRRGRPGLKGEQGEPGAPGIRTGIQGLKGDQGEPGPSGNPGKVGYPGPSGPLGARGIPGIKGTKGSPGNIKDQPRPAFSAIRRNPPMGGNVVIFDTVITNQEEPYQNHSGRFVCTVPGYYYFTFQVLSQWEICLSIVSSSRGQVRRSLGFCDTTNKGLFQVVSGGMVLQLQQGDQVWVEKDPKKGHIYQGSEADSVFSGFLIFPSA", "human C1q, UniProt P02746, 28-253": "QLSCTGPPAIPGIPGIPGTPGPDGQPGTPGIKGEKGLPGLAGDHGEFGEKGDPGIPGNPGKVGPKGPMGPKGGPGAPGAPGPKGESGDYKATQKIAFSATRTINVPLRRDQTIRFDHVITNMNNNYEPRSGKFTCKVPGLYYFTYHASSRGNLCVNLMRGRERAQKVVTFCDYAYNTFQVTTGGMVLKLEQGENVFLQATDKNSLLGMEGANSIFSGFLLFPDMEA", "human C1q, UniProt P02747, 29-245": "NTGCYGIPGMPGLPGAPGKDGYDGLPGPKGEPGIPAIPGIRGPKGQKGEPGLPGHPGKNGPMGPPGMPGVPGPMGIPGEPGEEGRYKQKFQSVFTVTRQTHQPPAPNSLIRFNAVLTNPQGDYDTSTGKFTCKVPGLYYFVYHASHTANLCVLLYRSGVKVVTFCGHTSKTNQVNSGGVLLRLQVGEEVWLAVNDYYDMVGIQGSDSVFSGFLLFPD"},
  "source": "paper PMC3630508",
  "about": "(Molecular immunology, 2012)",
  "key": {"[1]": {"molecular_target": "coat protein peptide E23A (human astrovirus type 1)", "test": "SPR"}, "[2]": {"molecular_target": "coat protein peptide Δ8-22 (human astrovirus type 1)", "test": "SPR"}},
  "data": [
    {"substance": "human C1q (from UniProt P02745 23-245; P02746 28-253; P02747 29-245) (complex)", "values": [
      {"measurement": "Kd", "setting": "[1]", "value": 6.08, "unit": "nM"},
      {"measurement": "koff", "setting": "[1]", "value": 0.000652, "unit": "s⁻¹"},
      {"measurement": "kon", "setting": "[1]", "value": 111000, "unit": "M⁻¹ s⁻¹"},
      {"measurement": "Kd", "setting": "[2]", "value": 5.43, "unit": "nM"},
      {"measurement": "koff", "setting": "[2]", "value": 0.00106, "unit": "s⁻¹"},
      {"measurement": "kon", "setting": "[2]", "value": 198000, "unit": "M⁻¹ s⁻¹"}
    ]}
  ]
}
